Data from US11807625B2, “Capsid inhibitors for the prevention of HIV” (Gilead Sciences, Inc., priority 2019, dated 2023).

Test: Plasma concentration vs. time profile of Compound Ib in rhesus after single subcutaneous dose (SHIV challenge study)
Format: in vivo, rhesus macaques
[1] = rhesus animals that became infected, SC Compound Ib

For `CC(C)(C#Cc1ccc(-c2ccc(Cl)c3c(NS(=O)(=O)C4CC4)nn(CC(F)F)c23)c([C@H](Cc2cc(F)cc(F)c2)NC(=O)Cn2nc(C(F)F)c3c2C(F)(F)[C@@H]2C[C@H]32)n1)S(C)(=O)=O` [Compound Ib, N—((S)-1-(3-(4-chloro-3-(cyclopropanesulfonamido)-1-(2,2-difluoroethyl)-1H-indazol-7-yl)-6-(3-methyl-3-(methylsulfonyl)but-1-yn-1-yl)pyridin-2-yl)-2-(3,5-difluorophenyl)ethyl)-2-((3b S,4aR)-3-(difluoromethyl)-5,5-difluoro-3b,4,4a,5-tetrahydro-1H-cyclopropa[3,4]cyclopenta[1,2-c]pyrazol-1-yl)acetamide], the “mean IQ at 1 week prior to the first detectable plasma virus” value [1] was 0.78±0.36, the “mean IQ at the 2 weeks prior to the first detectable plasma virus” value [1] was 0.85±0.33 and the “Compound Ib concentration corresponding to an inhibitory quotient (IQ) of 1” value (rhesus plasma) was 30 nM. The “Compound Ib concentration corresponding to an inhibitory quotient (IQ) of 4” value (rhesus plasma) was 121 nM.
